Pooled drug test results. Numbers come from NIAID ChemDB, via PubChem.

Common to all: whole-cell or culture tests; agent: HIV-1; cells: ATH8; read-out: inhibition

Percent inhibition refers to the dose given; in toxicity tests it is the harm to the cells.

{"smiles": "OC[C@@H]1CC[C@H](n2cnc3c(=S)nc[nH]c32)O1", "strain": "IIIB", "method": "cytopathic effect / trypan blue", "dose": "20 µM", "result": "2%"}
{"smiles": "Nc1ncnc2c1ncn2[C@H]1CC[C@@H](CO)O1", "strain": "IIIB", "method": "cytopathic effect / trypan blue", "dose": "10 µM", "result": "99%"}
{"smiles": "Cc1cn([C@H]2CC[C@@H](CO)O2)c(=O)[nH]c1=O", "strain": "IIIB Laboratory strain", "method": "cytopathic effect / trypan blue", "dose": "200 µM", "result": "77%"}
{"smiles": "Nc1ccn(C/C=C/CO)c(=O)n1", "strain": "IIIB", "method": "cytopathic effect / trypan blue", "dose": "100 µM", "result": "0%"}
{"smiles": "Nc1ncnc2c1ncn2[C@@H]1C=C(CO)[C@@H](O)[C@H]1O", "strain": "LAV Laboratory strain", "method": "cytopathic effect", "dose": "5 µg/mL", "result": "0%"}
{"smiles": "Nc1nc(N)c2ncn([C@H]3CC[C@@H](CO)O3)c2n1", "strain": "IIIB", "method": "cytopathic effect / trypan blue", "dose": "200 µM", "result": "100%"}
{"smiles": "Nc1ncnc2c1ncn2C[C@H](O)CO", "strain": "LAV Laboratory strain", "method": "cytopathic effect", "dose": "100 µg/mL", "result": "0%"}
{"smiles": "OC[C@H]1O[C@@H](n2cnc3c2NC=NC[C@H]3O)C[C@@H]1O", "method": "cytopathic effect", "dose": "0.05 µM", "result": "0%"}
{"smiles": "Nc1nc2c(ncn2CC(O)CCO)c(=O)[nH]1", "strain": "IIIB", "method": "cytopathic effect / trypan blue", "dose": "10 µM", "result": "16%"}
{"smiles": "Nc1nc(Cl)nc2c1ncn2[C@H]1CC[C@@H](CO)O1", "strain": "IIIB", "method": "cytopathic effect / trypan blue", "dose": "2 µM", "result": "1%"}
{"smiles": "Nc1ncnc2c1ncn2C=C=CCO", "strain": "IIIB", "method": "cytopathic effect / trypan blue", "dose": "100 µM", "result": "97%"}
{"smiles": "O=c1[nH]cnc2c1ncn2[C@H]1CC[C@@H](CO)O1", "strain": "IIIB", "method": "cytopathic effect / trypan blue", "dose": "10 µM", "result": "97%"}
{"smiles": "Nc1ncnc2c1ncn2[C@H]1CC[C@@H](CO)O1", "strain": "IIIB", "method": "cytopathic effect / trypan blue", "dose": "100 µM", "result": "90%"}
{"smiles": "Cc1ccc(C(=O)Nc2ccc(S(=O)(=O)O)c3cc(S(=O)(=O)O)cc(S(=O)(=O)O)c23)cc1NC(=O)c1cccc(NC(=O)Nc2cccc(C(=O)Nc3cc(C(=O)Nc4ccc(S(=O)(=O)O)c5cc(S(=O)(=O)O)cc(S(=O)(=O)O)c45)ccc3C)c2)c1", "strain": "LAV Laboratory strain", "method": "cytopathic effect", "dose": "50 µg/mL", "result": "100%"}
{"smiles": "Cc1cn([C@H]2CC[C@@H](CO)O2)c(=O)[nH]c1=O", "strain": "IIIB", "method": "cytopathic effect / trypan blue", "dose": "100 µM", "result": "68%"}
{"smiles": "CSC[C@H](NC(=O)COc1cccc2cnccc12)C(=O)N[C@@H](Cc1ccccc1)[C@H](O)C(=O)N1CSC(C)(C)[C@H]1C(=O)NC(C)(C)C", "strain": "MN", "method": "trypan blue", "dose": "0.09 µM", "result": "90%"}

A second listing of 2 rows from above:

smiles	strain	method	dose	result
Nc1ncnc2c1ncn2[C@H]1CC[C@@H](CO)O1	IIIB	cytopathic effect / trypan blue	10 µM	99%
OC[C@H]1O[C@@H](n2cnc3c2NC=NC[C@H]3O)C[C@@H]1O	-	cytopathic effect	0.05 µM	0%

Lines come from different laboratories, so protocols vary. An empty or dashed field is not shown.